pKd: −log10 of the molar value. “And” between values parts separate entries of the source, which are not always exact repeats. Equal values may be shown once.
Target: His6-RBD-2-His6 (pSRK120), refolded from inclusion bodies (SARS-CoV-2) (UniProt P0DTC2)
Experiment: SPR

Q: How did the pKd turn out when LCB1 miniprotein (designed binder) was run?
A: 8.52 and 8.00
